Like-named read-outs stand apart in the source and are kept apart here.
Assays:
[1] = tested on: BPV; test: Inactivation of BPV, infectiousness titration; format: cell-based, Bovine parvovirus; details: for Titer reduction: Horse serum + BPV, Acriflavine 0.001 mg/ml; for Virus titer found: BPV
[2] = tested on: PI3 virus; test: Inactivation of PI3 virus, infectiousness titration; format: cell-based, Bovine parainfluenza 3 virus; details: 2 hours
[3] = tested on: BVDV; test: Inactivation of BVDV, infectiousness titration; format: cell-based, Bovine viral diarrhoea virus; details: for Treatment titer: Acriflavine 0.001 mg/ml; for Inactivation of BVDV, in words: Table 3, 37° C.
[4] = tested on: PPV; test: Inactivation of PPV, infectiousness titration; format: cell-based, Porcine parvovirus; details: Acriflavine 0.001 mg/ml, 37° C.
[5] = tested on: CPV; test: Inactivation of CPV in protein solutions, infectiousness titration; format: cell-based, Canine parvovirus; details: Acriflavine 0.001 mg/ml, 37° C.
[6] = tested on: IBRV; test: Inactivation of IBRV, infectiousness titration; format: cell-based, Infectious bovine rhinotracheitis virus

Substance: 3,6-diamino-10-methylacridinium, chloride and 3,6-acridineidiamine [Acriflavine]
- Titer reduction ([1]; 37° C., 0 h): 0 log10/ml
- Titer reduction ([1]; 37° C., 1 h): ≧3.7 log10/ml
- Titer reduction ([1]; 37° C., 2 h): ≧3.6 log10/ml
- Virus inactivation ([2]; PI3V, Acriflavine 0.001 mg/ml, 37° C., EME medium): 2.4 log10/ml
- Inactivation of PI3V, in words ([2]; Table 3, 37° C.): inactivated
- Treatment titer ([3]; Beriate + BVDV, 37° C., 0 h): 5.0 log10/ml
- Treatment titer ([3]; Beriate + BVDV, 37° C., 1 h): ≦1.5 log10/ml
- Treatment titer ([3]; Beriate + BVDV, 37° C., 2 h): ≦1.5 log10/ml
- Treatment titer ([3]; Horse serum + BVDV, 37° C., 0 h): 5.0 log10/ml
- Treatment titer ([3]; Horse serum + BVDV, 37° C., 1 h): ≦1.5 log10/ml
- Treatment titer ([3]; Horse serum + BVDV, 37° C., 2 h): ≦1.5 log10/ml
- Inactivation of BVDV, in words ([3]; 2 hours): inactivated
- Treatment titer ([3]; Venimmun + BVDV, 37° C., 0 h): 6.4 log10/ml
- Treatment titer ([3]; Venimmun + BVDV, 37° C., 1 h): 4.5 log10/ml
- Treatment titer ([3]; Venimmun + BVDV, 37° C., 2 h): 1.9 log10/ml
- Treatment titer ([4]; Beriplex + PPV, 0 h): 4.8 log10/ml
- Treatment titer ([4]; Beriplex + PPV, 1 h): 2.0 log10/ml
- Treatment titer ([4]; Beriplex + PPV, 2 h): ≦1.5 log10/ml
- Treatment titer ([4]; Haemate + PPV, 0 h): 5.5 log10/ml
- Treatment titer ([4]; Haemate + PPV, 1 h): 3.3 log10/ml
- Treatment titer ([4]; Haemate + PPV, 2 h): 1.9 log10/ml
- Treatment titer ([4]; Venimmun + PPV, 0 h): 4.0 log10/ml
- Treatment titer ([4]; Venimmun + PPV, 1 h): ≦1.5 log10/ml
- Treatment titer ([4]; Venimmun + PPV, 2 h): ≦1.5 log10/ml
- Treatment titer ([5]; FCS + CPV, 0 h): 6.6 log10/ml
- Treatment titer ([5]; FCS + CPV, 1 h): 4.9 log10/ml
- Treatment titer ([5]; FCS + CPV, 2 h): 4.0 log10/ml
- Treatment titer ([5]; Venimmun + CPV, 0 h): 6.6 log10/ml
- Treatment titer ([5]; Venimmun + CPV, 1 h): 4.8 log10/ml
- Treatment titer ([5]; Venimmun + CPV, 2 h): 3.9 log10/ml
- Inactivation of IBRV, in words [6]: inactivated
- Virus titer found ([6]; 37° C., 2 hours): 1.8 log10/ml

Substance: Benzalkonium chloride [BACI]
- Virus titer found ([1]; BACI 0.01 mg/ml, 37° C., 2 hours, EME medium): 5.9 log10/ml
- Virus titer found ([1]; BACI 0.01 mg/ml, 1 hour, 45° C.): 5.2 log10/ml
- Virus titer found ([1]; BACI 0.01 mg/ml, 2 hours, 45° C.): 4.6 log10/ml
- Virus titer found ([1]; BACI 0.05 mg/ml, 1 hour, 45° C.): 5.2 log10/ml
- Virus titer found ([1]; BACI 0.05 mg/ml, 2 hours, 45° C.): 4.6 log10/ml
- Virus inactivation ([3]; BVDV, BACI 0.01 mg/ml, 37° C., 2 hours, EME medium): 3.9 log10/ml
- Inactivation of BVDV, in words ([3]; 2 hours): inactivated
- Inactivation of IBRV, in words ([6]; Table 3, 37° C., 2 hours): inactivated

Source: patent US6831086B1, “Process for the inactivation of viruses with the aid of acridine derivatives” (ZLB Behring GmbH, priority 1994, dated 2004)
